Assay results: PMC10104807, “Modulation of tau tubulin kinases (TTBK1 and TTBK2) impacts ciliogenesis” (Scientific Reports, 2023)

Amino acid sequences for entries named in this document (tags omitted).
UniProt P9WI81, whole entry: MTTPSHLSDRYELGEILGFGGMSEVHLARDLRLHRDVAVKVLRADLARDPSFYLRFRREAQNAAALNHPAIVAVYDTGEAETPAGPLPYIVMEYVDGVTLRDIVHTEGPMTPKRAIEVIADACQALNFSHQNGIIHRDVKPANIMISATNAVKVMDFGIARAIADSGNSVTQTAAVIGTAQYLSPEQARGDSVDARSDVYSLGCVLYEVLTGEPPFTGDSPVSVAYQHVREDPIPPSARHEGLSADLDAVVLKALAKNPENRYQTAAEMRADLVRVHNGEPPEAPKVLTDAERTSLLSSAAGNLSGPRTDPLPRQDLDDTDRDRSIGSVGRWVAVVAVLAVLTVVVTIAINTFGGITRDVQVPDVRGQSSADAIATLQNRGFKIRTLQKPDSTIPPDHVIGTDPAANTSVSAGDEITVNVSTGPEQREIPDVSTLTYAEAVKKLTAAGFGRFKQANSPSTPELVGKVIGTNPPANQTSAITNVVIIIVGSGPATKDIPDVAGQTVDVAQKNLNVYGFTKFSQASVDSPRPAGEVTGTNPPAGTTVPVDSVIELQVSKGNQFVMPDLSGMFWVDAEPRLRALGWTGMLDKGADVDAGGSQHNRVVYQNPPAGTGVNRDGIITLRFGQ

Biological target: PKNB(M.tuberculosis) (Mycobacterium tuberculosis, UniProt P9WI81)
Assay: DiscoverX scanMAX binding assay
Conditions: 1 μM

In the case of `CCC(C)(O)C#Cc1ccc2[nH]c3c(c2c1)-c1nc(N)ncc1CCC3` (racemic), the “PKNB(M.tuberculosis) % control at 1000nM” value was 4.4 % control.
